# Like-named read-outs stand apart in the source and are kept apart here.
# How the values were obtained:
# [1] = system: NLRepRlucP373S viruses containing Gag SDMs or gag/pr genes from clinical isolates; experiment: Multiple-cycle replication assay, NLRepRluc reporter viruses in MT-2 cells, luciferase endpoint; type: cell-based, HIV-1; settings: viruses with V362I
# Text: Multiple-cycle assays using recombinant viruses or clinical isolates were used to assess MI antiviral activity as described previously ([10]). pNLRepRlucP373S (the P373S change is in the Gag gene and converts an outlier polymorphism in the NL4-3 gene to the prevalent amino acid in the population) plasmids containing SDMs in Gag or gag/pr regions from clinical isolates were transfected into HEK 293T cells, and the supernatant containing recombinant virus was harvested after 4 to 5 days. Virus was used to infect MT-2 cells in the presence of a 3-fold serially diluted compound at a final dimethyl sulfoxide (DMSO) concentration of 1%. The inocula of the reporter viruses were determined based on the luciferase activity detected on day 4 postinfection. […] Virus growth was determined on days 4 to 5 postinfection for reporter variants or days 5 to 11 for the other viruses. The reporter viruses were detected by a luciferase assay according to manufacturer protocols (Brite-Glo luciferase kit [Promega] for CEM-NKR-CCR5-Luc cells and Dual-Luciferase Reporter 1000 assay system [Promega] for the other cells), and luminescence was detected on a Wallac Trilux. The growth of clinical isolates in PBMCs was quantitated by reverse transcriptase activity in a 96-well scintillation proximity assay (SPA). […]
# [2] = system: NLRepRlucP373S-based viruses; type: cell-based, HIV-1
# HIV-1 Gag VLPs [3] = molecular target: T1, HIV-1 Gag VLPs (Human immunodeficiency virus type 1 group M subtype B, UniProt P04591, A364V); type: binding; settings: A364V VLP
# T1 construct: made in house; host or cells: HEK 293T
# Description: (§1) In a 96-well white low-binding plate (Corning; Corning, NY), 0.5 to 1.2 μg of WT or other polymorphic or mutant VLPs was mixed in 40 μl of PBS with SPA beads (100 μg/well, PVT-WGA SPA beads; PerkinElmer) for 1 h at room temperature, and then the volume was increased to 200 μl/well by the addition of binding buffer (100 mM Tris [pH 6.5], 2 mM EDTA, 0.03% Tween 20, and 5 mM MgCl2). Serial dilutions of ^3H-MIs were then added to wells. The final concentration of DMSO in the assay was 10% (vol/vol). After an approximately 4-h equilibration at room temperature, bound ^3H-MIs were measured using a Top Count or Microbeta2 plate reader (PerkinElmer). Kd values were calculated by fitting the data using GraphPad Prism v5.1.
# HIV-1 Gag VLPs [4] = molecular target: T2, HIV-1 Gag VLPs (Human immunodeficiency virus type 1 group M subtype B, UniProt P04591, DEL370-370); type: binding; settings: ΔV370 VLP
# T2 construct: made in house; host or cells: HEK 293T
# Description: as §1
# HIV-1 Gag VLPs [5] = molecular target: T3, HIV-1 Gag VLPs (Human immunodeficiency virus type 1 group M subtype B, UniProt P04591, V362I); type: binding; settings: V362I VLP
# T3 construct: made in house; host or cells: HEK 293T
# Description: as §1
# HIV-1 Gag VLPs [6] = molecular target: T4, HIV-1 Gag VLPs (Human immunodeficiency virus type 1 group M subtype B, UniProt P04591, V362I/V370A); type: binding; settings: V362I/V370A VLP
# T4 construct: made in house; host or cells: HEK 293T
# Description: as §1
# HIV-1 Gag VLPs [7] = molecular target: T5, HIV-1 Gag VLPs (Human immunodeficiency virus type 1 group M subtype B, UniProt P04591, V370A); type: binding; settings: V370A VLP
# T5 construct: made in house; host or cells: HEK 293T
# Description: as §1
# HIV-1 Gag VLPs [8] = type: binding; settings: A364V VLP
# Description: as §1
# MT-2 cells = experiment: Cytotoxicity in MT-2 cells (MTS, 4-day incubation); settings: for all viruses shown in Table 1
structure (smiles),measurement,setting,value
C=C(C)[C@@H]1CC[C@]2(NCCN3CCS(=O)(=O)CC3)CC[C@]3(C)[C@H](CC[C@@H]4[C@@]5(C)CC=C(C6=CC[C@@](CF)(C(=O)O)CC6)C(C)(C)[C@@H]5CC[C@]43C)[C@@H]12 [GSK’254],fold more sensitive to GSK’254 than to GSK’795,[1],approximately 4 fold
same,Serum effect (±HS EC50 ratio),[2]; V370A,6.1
same,Serum effect (±HS EC50 ratio),[2]; ΔV370,8.7
same,Relative GSK’254/GSK’795 affinity,HIV-1 Gag VLPs [3],1.8
same,Relative GSK’254/GSK’795 affinity,HIV-1 Gag VLPs [4],9.0
same,Relative GSK’254/GSK’795 affinity,HIV-1 Gag VLPs [5],7.2
same,Relative GSK’254/GSK’795 affinity,HIV-1 Gag VLPs [6],10.0
same,Relative GSK’254/GSK’795 affinity,HIV-1 Gag VLPs [7],9.3
same,fold reduced affinity versus WT,HIV-1 Gag VLPs [8],6.5 fold
same,therapeutic index,MT-2 cells,"over 1,000"

# From article PMC8765437, “GSK3640254 Is a Novel HIV-1 Maturation Inhibitor with an Optimized Virology Profile” (Antimicrobial Agents and Chemotherapy, 2022)
